Data reported in publication PMC5150637.
For at least one entry, the source does not settle the construct or the ends of the probe. At least one verdict was read from the data and is not stated in words by the source.

System: MBP-SphR
Assay: EMSA
Settings: 10 mM Tris-HCl pH 7.5, 50 mM KCl, 1 mM DTT, 1 mM EDTA, 3 mM MgCl2, 50 ug/ml BSA, 4% glycerol, 0.05% NP-40, 50 ng/ul poly(dI-dC), 30 C, 30 min, recombinant protein, residues 1-356, protein details: N-terminal MBP (pMAL-c5X), label: biotin 3' end, probe letters rebuilt from the primers and the genome

GGTTGCCACTGTAGTGCCAGGGTGGTGGAGTCGAGGGGGGCGTAGCGGACAGGAAGGGGGTGAGCGCCGGCCATCCTGCATGGACGGCAAGGCAGGCGGGTAAAAAAAGGCCGCCTGCGT (double strand) [cerN promoter -200 to -81 probe]
binding result (C14-sphingosine): binds | binding result (C16-sphingosine): binds
